Results taken from ChEMBL document CHEMBL1133927, “Antimalarial t-butylperoxyamines” (Bioorg Med Chem Lett, 2001).

Tests used:
Mus musculus [1] = experiment: Mean survival time of mice (Mus musculus) infected with Plasmodium berghei after administration of compound at the dose of 160 mg/kg
Plasmodium falciparum [2] = experiment: In vitro total parasite growth inhibition for chloroquine-sensitive Plasmodium falciparum FJB D9
Plasmodium falciparum [3] = experiment: In vitro schizont maturation inhibition for chloroquine-sensitive Plasmodium falciparum FJB D9
Mus musculus [4] = experiment: Mean survival time of mice (Mus musculus) infected with Plasmodium berghei after administration of compound at the dose of 40 mg/kg
Mus musculus [5] = experiment: Mean survival time of mice (Mus musculus) infected with Plasmodium berghei after administration of compound at the dose of 80 mg/kg
Plasmodium falciparum [6] = experiment: In vitro total parasite growth inhibition for chloroquine-sensitive Plasmodium falciparum FSH 14
Plasmodium falciparum [7] = experiment: In vitro schizont maturation inhibition for chloroquine-sensitive Plasmodium falciparum FSH 14
Mus musculus [8] = experiment: Mean survival time of mice (Mus musculus) infected with Plasmodium berghei after administration of compound at the dose of 20 mg/kg

Q: How did the Mean survival time (Mus musculus [1]) turn out when `COc1ccc2c3c1O[C@@H]1[C@]34CCN(COOC(C)(C)C)[C@H](C2)[C@]42CC[C@@]1(OC)C(C(C)(O)C(C)(C)C)C2` (some centres not stated) was run?
A: Its Mean survival time is 12.6 days.

Q: And the IC50 (Plasmodium falciparum [2])?
A: The IC50 was 1.45 µM well-1.

Q: And the IC90 (Plasmodium falciparum [2])?
A: The IC90 was 4 µM well-1.

Q: And the IC50 (Plasmodium falciparum [3])?
A: Its IC50 is 1.6 µM well-1.

Q: And the IC90 (Plasmodium falciparum [3])?
A: The IC90 was 4.6 µM well-1.

Q: What about the Mean survival time (Mus musculus [4]) of the same compound?
A: The Mean survival time was 8.4 days.

Q: And the Mean survival time (Mus musculus [5])?
A: The Mean survival time was 10 days.

Q: What about the IC50 (Plasmodium falciparum [6]) of the same compound?
A: Its IC50 is 1.95 µM well-1.

Q: And the IC90 (Plasmodium falciparum [6])?
A: Its IC90 is 5 µM well-1.

Q: What about the IC50 (Plasmodium falciparum [7]) of the same compound?
A: The IC50 was 2.65 µM well-1.

Q: What about the IC90 (Plasmodium falciparum [7]) of the same compound?
A: Its IC90 is 5.6 µM well-1.

Q: And the Mean survival time (Mus musculus [8])?
A: The Mean survival time was 7 days.
